*1 amine or outer side, *2 acyl side, *3 side chain or, on linkers, in order; H or OH if unused. Where a SMILES comes first, the peptide text is derived from it. [ ]: non-standard residue; d: D form. The star is where a group is joined. Fmoc = O=C(OCC1c2ccccc2-c2ccccc21)*; X1 = O=C(C(N[*:1])Sc1ccccc1)[*:2]
Each molecule was assayed on HIV-1 Bru. Conditions: therapeutic index, MT4 cells.
Format: cell-based

Structure (SMILES) | TI (ID50/IC50)
CC[C@H](C)[C@H](N)C(=O)N[C@@H](CCCNC(=N)N)C(=O)N[C@@H](CCCCN)C(=O)N[C@H](C(=O)N[C@@H](CC(C)C)C(=O)NC(Sc1ccccc1)C(=O)N[C@@H](CC(C)C)C(=O)N[C@@H](CC(=O)O)C(=O)NCC(N)=O)[C@@H](C)CC (stereo partly drawn) [Compound 9, Ile-Arg-Lys-Ile-Leu-(S)Phe-Leu-Asp-Gly-NH2] (H-IRKIL[X1]LDG-NH2) | 50
CC[C@H](C)[C@H](NC(=O)CNC(=O)[C@H](CC(=O)O)NC(=O)[C@H](CC(C)C)NC(=O)C(NC(=O)[C@H](CC(C)C)NC(=O)[C@@H](NC(=O)[C@H](CCCCN)NC(=O)[C@H](CCCNC(=N)N)NC(=O)[C@@H](NC(=O)OCC1c2ccccc2-c2ccccc21)[C@@H](C)CC)[C@@H](C)CC)Sc1ccccc1)C(=O)O (stereo partly drawn) [Compound 10, Fmoc-Ile-Arg-Lys-Ile-Leu-(S)Phe-Leu-Asp-Gly-Ile-OH] (Fmoc-IRKIL[X1]LDGI-OH) | 10
CC[C@H](C)[C@H](N)C(=O)N[C@@H](CCCNC(=N)N)C(=O)N[C@@H](CCCCN)C(=O)N[C@H](C(=O)N[C@@H](CC(C)C)C(=O)NC(Sc1ccccc1)C(=O)N[C@@H](CC(C)C)C(=O)N[C@@H](CC(=O)O)C(=O)NCC(=O)N[C@H](C(=O)O)[C@@H](C)CC)[C@@H](C)CC (stereo partly drawn) [Compound 11, Ile-Arg-Lys-Ile-Leu-(S)Phe-Leu-Asp-Gly-Ile-OH] (H-IRKIL[X1]LDGI-OH) | 10
